From the NIST ThermoML archive (doi:10.1016/j.tca.2010.07.032) come the findings set out here.

SMILES strings stand for the structures. Several values for one entry are separate records, joined by “and”; a condition that tells them apart may be missing. Identical values can stand only once. ± gives the expanded uncertainty stated by the source.

For the data set the following is noted: Liquid; Temperature-Programmed Gas Chromatography.

For the compound `CCCCOP(=O)(OCCCC)OCCCC` [tributyl phosphate], the Normal boiling temperature was 288.19 ± 29 °C and 285.50 ± 29 °C.
